Compound potency records, mixed from different reports. Data source: NIAID ChemDB in PubChem.

Common to all: growth or infection tests; species: Herpes simplex virus 1; endpoint: EC50

An empty or dashed field is not shown. Conditions beyond the fields shown may differ between rows. ECn is the concentration giving n% inhibition of infection, replication or growth.

smiles | strain or isolate | cells | value
CC1(C)OCC2(CO[C@@H](n3ccc(=O)[nH]c3=O)C2)O1 | - | CCL18 | >100 µM
CCOC(=O)C1=CN(COCCO)S(=O)(=O)NC1=O | F | E6SM | >400 µg/mL
COc1ncnc2c1cnn2Cc1cn(CCCCO)nn1 | B2006 (TK-) | E6SM | >400 µg/mL
CC(=O)OCCOCN1C(N)=CC(N)=NS1(=O)=O | VMW1837 (TK-) | E6SM | >400 µg/mL
CCCCc1cn([C@@H]2OC3COP(=O)(O)OC3[C@H]2O)c(=O)nc1N | KOS | - | >400 µg/mL
CC(C)Nc1ncnc2c1ncn2C1C[C@H](CO)[C@@H](CO)C1 | KOS | E6SM | >100 µg/mL
O=C(NCc1ccc(Cl)cc1)c1c[nH]c2c(F)cc(CCCO)cc2c1=O | TSD9 (E597 (A)) | - | 8.2 µM
O=c1ccn([C@H]2C[C@](O)(CO)CO2)c(=O)[nH]1 | - | CCL18 | >100 µM
CCCCCCCCc1cn([C@@H]2O[C@H](COP(=O)(O)O)[C@@H](O)[C@H]2O)c(=O)nc1N | F | - | >400 µg/mL
Cc1cn([C@H]2C[C@](O)(CO)CO2)c(=O)[nH]c1=O | - | CCL18 | >100 µM
O=c1[nH]cnc2c1cnn2Cc1cn(CCCCO)nn1 | KOS | E6SM | >400 µg/mL
O=C(Nc1ccn([C@@H]2CC(O)(CO)CO2)c(=O)n1)c1ccccc1 | - | CCL18 | >100 µM
O=c1[nH]cnc2c1ncn2C1C[C@H](CO)[C@@H](CO)C1 | KOS (TK-) | E6SM | >100 µg/mL
CCCCCCc1cn([C@@H]2O[C@H](COP(=O)(O)O)[C@@H](O)[C@H]2O)c(=O)nc1N | McIntyre | - | >400 µg/mL
Cc1cn([C@H]2CC[C@@H](CO)O2)c(=S)[nH]c1=O | F | - | 0.55 µg/mL
Cc1cccn2c(C3OCCO3)cnc12 | B2006 (TK-) | E6SM | >1000 µM
N#CC1=CN(COCCO)S(=O)(=O)N=C1N | F | E6SM | >400 µg/mL
Cc1ccn2c(C3OCCO3)cnc2c1 | KOS | E6SM | >1000 µM
OCCCCn1nncc1Cn1ncc2c(SCc3ccccc3)ncnc21 | B2006 (TK-) | E6SM | >400 µg/mL
CC(=O)OCCOCN1C=CC(=O)N(COCCOC(C)=O)S1(=O)=O | KOS | E6SM | >400 µg/mL
CCCc1cn([C@@H]2O[C@H](COP(=O)(O)O)[C@@H](O)[C@H]2O)c(=O)nc1N | KOS | - | >400 µg/mL
OCCCCn1cc(Cn2ncc3c(NCc4ccccc4)ncnc32)nn1 | KOS | E6SM | >400 µg/mL
CCCCc1cn([C@@H]2O[C@H](COP(=O)(O)O)[C@@H](O)[C@H]2O)c(=O)nc1N | KOS | - | >400 µg/mL
O=C(NCc1ccc(Cl)cc1)c1c[nH]c2c(F)cccc2c1=O | PAAS (R841S (III)) | - | 4.6 µM
CC1(C)OCC2(CO[C@H](n3ccc(=O)[nH]c3=O)C2)O1 | - | CCL18 | >100 µM
CCc1cn([C@@H]2O[C@H](COP(=O)(O)O)[C@@H](O)[C@H]2O)c(=O)nc1N | KOS | - | >400 µg/mL
Cc1ccn2c(C3SCCS3)cnc2c1 | B2006 (TK-) | E6SM | >1000 µM
NC1=CC(N)=NS(=O)(=O)N1COCCO | VMW1837 (TK-) | E6SM | >400 µg/mL
CC(C)c1ccc(-c2cc(-c3cn([C@H]4CC[C@H](O)[C@@H](CO)O4)c(=O)[nH]c3=O)on2)cc1 | - | - | 0.09 µg/mL
Cc1ccn2c(C3OCCS3)cnc2c1 | KOS | E6SM | >1000 µM
Nc1ncnc2c1ncn2C1C[C@H](CO)[C@@H](CO)C1 | - | E6SM | 0.0001 µg/mL

5 of the rows above, restated:

smiles,strain or isolate,cells,value
CCCCCCc1cn([C@@H]2O[C@H](COP(=O)(O)O)[C@@H](O)[C@H]2O)c(=O)nc1N,McIntyre,-,>400 µg/mL
CCCCc1cn([C@@H]2O[C@H](COP(=O)(O)O)[C@@H](O)[C@H]2O)c(=O)nc1N,KOS,-,>400 µg/mL
O=c1[nH]cnc2c1cnn2Cc1cn(CCCCO)nn1,KOS,E6SM,>400 µg/mL
CCc1cn([C@@H]2O[C@H](COP(=O)(O)O)[C@@H](O)[C@H]2O)c(=O)nc1N,KOS,-,>400 µg/mL
O=c1[nH]cnc2c1ncn2C1C[C@H](CO)[C@@H](CO)C1,KOS (TK-),E6SM,>100 µg/mL